Only a part is listed here, and it is no random draw. These assays gave more results; the selection is not random. Calls of active or inactive are those of the source. The calls are words filed in the database; no cut-off is given here.
Experiment: qHTS for Stage-Specific Inhibitors of Vaccinia Orthopoxvirus: mCherry Reporter Primary qHTS.
Type: functional

SMILES	Potency
O=C(OC1CN2CCC1CC2)C12CC3CC(CC(C3)C1)C2 (stereo unspecified)	inactive

From ChEMBL document CHEMBL1201862, “PubChem BioAssay data set” (2004)
